A mixed list of measured activities; the numbers were collected in NIAID ChemDB.

All rows: whole-cell or culture tests; agent: Mycobacterium tuberculosis

MIC50, MIC90 and the like: level of inhibition, or share of isolates inhibited.

smiles	read by	cells	measure	strain	setting	mutations	dose	value
CN(C)c1ccc2c(N(C)C)cc(N(C)C)nc2c1	BACTEC		MIC bound	H37Rv				≤12.5 µg/mL
CC(=O)Nc1ccc(OCC(=O)NN2C(=O)CSC2c2ccco2)cc1			inhibition	H37Rv			12.5 µg/mL	0%
COc1c(O)cc2oc3cc(O)c(CCC(C)C)c(O)c3c(=O)c2c1CCC(C)C	resazurin		MIC	M22		MDR		3.12 µg/mL
COc1ccccc1C1SCC(=O)N1C(=O)NCCCN1c2ccccc2Sc2ccccc21	agar		inhibition	H37Rv			25 µg/mL	30%
COc1ccc(-c2noc(C3=CC4(CCN(CC5CCCO5)CC4)c4ccccc43)n2)cc1	resazurin		MIC	912253		Isoniazid-resistant		0.39 µM
N[C@@H]1CONC1=O			Median MIC	H37Ra				19 µg/mL
O=[N+]([O-])c1cn2c(n1)OC[C@@H](OCc1ccc(C#Cc3ccc(C(F)(F)F)cn3)cc1)C2	low oxygen		MIC90					6.9 µM
CC(=O)Nc1ccc(OCC(=O)NN2C(=O)CSC2c2ccccc2O)cc1			EC50	H37Rv				>12.5 µg/mL
NCC[C@H](O)C(=O)N[C@@H]1C[C@H](N)[C@@H](O[C@H]2O[C@H](CN)[C@@H](O)[C@H](O)[C@H]2O)[C@H](O)[C@H]1O[C@H]1O[C@H](CO)[C@@H](O)[C@H](N)[C@H]1O			Mean MIC	H37Rv				0.42 µg/mL
Cc1cc(=O)[nH]c2cc(N(C)C)ccc12	BACTEC		MIC bound	H37Rv				>12.5 µg/mL
CC1COc2c(N3CCN(C)CC3)c(F)cc3c(=O)c(C(=O)O)cn1c23			MBC	H37RV (DRUG-SUS)				4 µg/mL
CC(=O)Oc1ccccc1C(=O)Nc1ncc([N+](=O)[O-])s1	visual reading		MIC	S spoligotype 34				12 µg/mL
C1=C(c2nc(-c3cccnc3)no2)c2ccccc2C12CCN(CC1CCCO1)CC2	turbidity		MIC	TB376		Spiroindene-resistant		>31 µM
CCCOc1cc2oc3cc(O)c(CCC(C)C)c(O)c3c(=O)c2c(CCC(C)C)c1OC	resazurin		MIC	M16		MDR		6.25 µg/mL
CC[C@H]1OC(=O)[C@H](C)[C@@H](O[C@H]2C[C@@](C)(OC)[C@@H](O)[C@H](C)O2)[C@H](C)[C@@H](O[C@@H]2O[C@H](C)C[C@H](N(C)C)[C@H]2O)[C@](C)(OC)C[C@@H](C)C(=O)[C@H](C)[C@@H](O)[C@]1(C)O			MIC	41494				>4 µg/mL
O=C1C2C3CCC(O3)C2C(=O)N1SC(Cl)(Cl)Cl	BACTEC		MIC bound	H37Rv				≤12.5 µg/mL
CCOc1cc2oc3cc(O)c(CCC(C)C)c(O)c3c(=O)c2c(CCC(C)C)c1OC	resazurin		MIC	M11				1.56 µg/mL
CNC(=O)OCc1nc(-c2ccccc2)oc1COC(=O)NC	BACTEC		MIC bound	H37Rv				>12.5 µg/mL
Cc1ccc(-c2noc(C3=CC4(CCN(CC5CCCO5)CC4)c4ccccc43)n2)cn1	resazurin		MIC	D-211		Drug-resistant		1.56 µM
O=[N+]([O-])c1cn2c(n1)OC[C@@H](OCc1ccc(Oc3ccc(C(F)(F)F)cc3)cc1)C2	low oxygen		MIC90					0.65 µM
CC[C@@H](CO)NCCN[C@@H](CC)CO	resazurin		MIC	M8		MDR		>8 µg/mL
O=C(O)CSC(=S)N1CCN(C(=S)SCC(=O)O)CC1	BACTEC		MIC	H37Rv				≥12.5 µg/mL
CO[C@H]1/C=C/O[C@@]2(C)Oc3c(C)c(O)c4c(O)c(c(/C=N/N5CCN(C6CCCC6)CC5)c(O)c4c3C2=O)NC(=O)/C(C)=C\C=C\[C@H](C)[C@H](O)[C@@H](C)[C@@H](O)[C@@H](C)[C@H](OC(C)=O)[C@@H]1C			Median MIC	H37Ra				0.0031 µg/mL
O=C(Nc1ccccc1)c1nn(-c2cc(S(=O)(=O)[O-])c([N+](=O)[O-])cc2Cl)[n+](-c2cc(S(=O)(=O)[O-])c([N+](=O)[O-])cc2Cl)n1.[Na+]	BACTEC		MIC bound	H37Rv				>12.5 µg/mL
CN[C@@H]1[C@H](O[C@H]2[C@H](O[C@H]3[C@H](O)[C@@H](O)[C@H](N=C(N)N)[C@@H](O)[C@@H]3N=C(N)N)O[C@@H](C)[C@]2(O)C=O)O[C@@H](CO)[C@H](O)[C@H]1O			MIC	TN2229 (N2)				>2 µg/mL
CC(=O)NNC(=O)C(N)Cc1ccc(O)cc1	BACTEC		inhibition	H37Rv			12.5 µg/mL	24%
CN[C@@H]1[C@H](O[C@H]2[C@H](O[C@H]3[C@H](O)[C@@H](O)[C@H](N=C(N)N)[C@@H](O)[C@@H]3N=C(N)N)O[C@@H](C)[C@]2(O)C=O)O[C@@H](CO)[C@H](O)[C@H]1O			MIC	41494				<2 µg/mL
CC/C(=C(\c1ccccc1)c1ccc(OCCN(C)C)cc1)c1ccccc1	resazurin		MIC	RifR				6.25–12.5 µg/mL
CC[C@@]1(O)C[C@@H](OC2CC(N(C)C)C(O)C(C)O2)c2c(O)c3c(c(O)c2[C@@H]1OC1CC(N(C)C)C(O)C(C)O1)C(=O)c1cccc(O)c1C3=O	BACTEC		MIC bound	H37Rv				>12.5 µg/mL
NC(=O)c1cnccn1			MIC	H6927				30 µg/mL
CC(C)(C)c1ccc(CN2CCC3(CC2)C(=O)N(CC2CC2)c2ccccc23)cc1	resazurin		MIC	H37Rv				0.8 µM
O=C([C@@H](O)CO)N1CC=C(c2c(F)cc(N3C[C@H](COc4ccon4)OC3=O)cc2F)CC1	broth dilution		EC50	H37Rv (ATCC 27294)				1.24 µg/mL
CO[C@H]1/C=C/O[C@@]2(C)Oc3c(C)c(O)c4c(O)c(c(/C=N/N5CCN(C)CC5)c(O)c4c3C2=O)NC(=O)/C(C)=C\C=C\[C@H](C)[C@H](O)[C@@H](C)[C@@H](O)[C@@H](C)[C@H](OC(C)=O)[C@@H]1C			MIC	H37Rv				0.08 µg/mL
COC(=O)c1ccc(SCC(=O)c2ccc([N+](=O)[O-])o2)cc1	BACTEC		inhibition	H37Rv			12.5 µg/mL	99%
NC[C@H]1O[C@H](O[C@H]2[C@H](O)[C@@H](O[C@H]3O[C@H](CO)[C@@H](O)[C@H](N)[C@H]3O)[C@H](N)C[C@@H]2N)[C@H](O)[C@@H](O)[C@@H]1O			Median MIC	H37Ra				2.5 µg/mL
O=c1c(Br)cc2c(-c3ccccc3)c3cc(Br)c(O)c(Br)c3oc-2c1Br	BACTEC		MIC bound	H37Rv				>12.5 µg/mL
NNC(=O)c1ccncc1	broth dilution		MIC	H37Rv (ATCC 25618)				0.06 µg/mL
O=[N+]([O-])c1cn2c(n1)OC[C@@H](OCc1ccc(C#Cc3ccc(C(F)(F)F)cc3)nc1)C2	resazurin		MIC90					0.04 µM
C=CCOc1cc2oc3cc(O)c(CCC(C)C)c(O)c3c(=O)c2c(CCC(C)C)c1OC	resazurin		MIC	H37Rv				3.12 µg/mL
C1=C(c2nc(-c3ccccc3)no2)c2ccccc2OC12CCN(CC1CCCO1)CC2	resazurin		MIC	H37Rv				0.8 µM
Cc1ccc(/C=C2/SC(c3ccc(C)cc3)N(C(=O)NCCCN3c4ccccc4Sc4ccccc43)C2=O)cc1	agar		inhibition	H37Rv			25 µg/mL	22%
O=[N+]([O-])c1cn2c(n1)OC[C@@H](OCc1ccc(Oc3ccc(OC(F)(F)F)cc3)cn1)C2	resazurin		MIC90					0.085 µM
Cc1ccc2oc(=S)n(-c3ccc(Cl)cc3)c(=S)c2c1			MIC	My 331/88	14 d			0.5 µM
Cc1cccc2nc3nc(Cl)c(Cl)nc3n12	BACTEC		inhibition	H37Rv			12.5 µg/mL	9%
O=C(/N=C/c1cccc(Cl)c1)NCCCN1c2ccccc2Sc2ccccc21	agar		inhibition	H37Rv			25 µg/mL	27%
C[C@H]1COc2c(N3CCN(C)CC3)c(F)cc3c(=O)c(C(=O)O)cn1c23			MIC	Strain 460				0.5 µg/mL
O=[N+]([O-])c1cn2c(n1)OC[C@@H](OCc1ccc(N3CCN(c4ccc(C(F)(F)F)cn4)CC3)cc1)C2	resazurin		MIC90					0.02 µM
CN[C@@H]1[C@H](O[C@H]2[C@H](O[C@H]3[C@H](O)[C@@H](O)[C@H](N=C(N)N)[C@@H](O)[C@@H]3N=C(N)N)O[C@@H](C)[C@]2(O)C=O)O[C@@H](CO)[C@H](O)[C@H]1O			Mean MIC	H37Ra				0.94 µg/mL
CN(C)c1ccc2nc3ccc(=O)cc-3sc2c1	BACTEC	VERO	MIC	H37Rv				0.39 µg/mL
CC1COc2c(N3CCN(C)CC3)c(F)cc3c(=O)c(C(=O)O)cn1c23	broth dilution		MIC	Beijing				0.5 µg/mL
CN1C(=O)[C@]23CC4=CC=C[C@H](O)[C@H]4N2C(=O)[C@@]1(CO)SS3	resazurin		MIC bound	H37Rv				<6.25 µg/mL
NNC(=O)c1ccncc1			MIC	Strain 5				0.06 µg/mL
CO[C@H]1/C=C/O[C@@]2(C)Oc3c(C)c(O)c4c(O)c(c(/C=N/N5CCN(C)CC5)c(O)c4c3C2=O)NC(=O)/C(C)=C\C=C\[C@H](C)[C@H](O)[C@@H](C)[C@@H](O)[C@@H](C)[C@H](OC(C)=O)[C@@H]1C	resazurin		MIC	M8				>2 µg/mL
O=c1c2oc3ccccc3c2cnn1CCl	BACTEC		MIC bound	H37Rv				>12.5 µg/mL
COc1ccc2oc(=O)n(-c3ccccc3)c(=S)c2c1			MIC	My 331/88	21 d			32 µM
CO[C@H]1/C=C/O[C@@]2(C)Oc3c(C)c(O)c4c(O)c(c(/C=N/N5CCN(C/C=C/c6ccccc6)CC5)c(O)c4c3C2=O)NC(=O)/C(C)=C\C=C\[C@H](C)[C@H](O)[C@@H](C)[C@@H](O)[C@@H](C)[C@H](OC(C)=O)[C@@H]1C			MIC	MTB9 (RIF-R)				>8 µg/mL
CO[C@@H]1[C@@H](OC(=O)c2ccc(C)[nH]2)[C@@H](O)C(Oc2ccc3c(O)c(NC(=O)c4c[nH]c(C(=O)Nc5c(O)c6ccc(OC7OC(C)(C)[C@H](OC)[C@@H](OC(=O)c8ccc(C)[nH]8)[C@H]7O)c(C)c6oc5=O)c4C)c(=O)oc3c2C)OC1(C)C			MIC	EMB-R				6.4 µg/mL
CO[C@H]1/C=C/O[C@@]2(C)Oc3c(C)c(O)c4c(O)c(c(/C=N/N5CCN(C)CC5)c(O)c4c3C2=O)NC(=O)/C(C)=C\C=C\[C@H](C)[C@H](O)[C@@H](C)[C@@H](O)[C@@H](C)[C@H](OC(C)=O)[C@@H]1C			Mean MIC	H37Ra				0.005 µg/mL
CC(=O)Nc1ccc(OCC(=O)N/N=C/c2ccco2)cc1			inhibition	H37Rv			12.5 µg/mL	15%
CCN(CC)CCNc1ccc(CO)c2oc3ccc(OS(=O)(=O)c4ccc(C)cc4)cc3c(=O)c12			MIC	PZA-R				12.5 µg/mL
Fc1ccc(-n2c(=S)oc3ccc(Cl)cc3c2=S)cc1			MIC	My 331/88	14 d			1 µM
CCN1Cc2c(/C=C/c3ccccc3)nc3ccc(OC)cc3c2N(c2cccc(Cl)c2)C1	BACTEC		inhibition	H37Rv			12.5 µg/mL	89%
O=C(/N=C/c1ccc(O)cc1)NCCCN1c2ccccc2Sc2ccccc21	agar		inhibition	H37Rv			50 µg/mL	50%
NNC(=O)c1ccncc1	resazurin		MIC	M-4		MDR		>2 µg/mL
COc1ccc(-c2noc(C3=CC4(CCN(CC5CCCO5)CC4)c4ccccc43)n2)cn1	resazurin		MIC	H37Rv				0.4 µM
CCN1C(=O)S/C(=C/c2ccc(Cl)c(Cl)c2)C1=O	BACTEC		MIC bound	H37Rv				>12.5 µg/mL
CN[C@@H]1[C@H](O[C@H]2[C@H](O[C@H]3[C@H](O)[C@@H](O)[C@H](N=C(N)N)[C@@H](O)[C@@H]3N=C(N)N)O[C@@H](C)[C@]2(O)C=O)O[C@@H](CO)[C@H](O)[C@H]1O	resazurin		MIC	M21		MDR		>8 µg/mL
CC(=O)Nc1ccc(OCC(=O)NN2C(=O)C(C)SC2/C=C/c2ccccc2)cc1			EC50	H37Rv				>12.5 µg/mL
O=Nc1c(-c2ccccc2)[nH]oc1=O	resazurin		inhibition	H37Rv			6.25 µg/mL	99%
Cc1ccc(-n2c(=S)oc3ccc(F)cc3c2=S)cc1			MIC	My 331/88	14 d			1 µM
CC1(C)OC(CO)C2OC(C)(C)OC(CO)C2O1	BACTEC		inhibition	H37Rv			12.5 µg/mL	-22%
O=C(NCCCN1c2ccccc2Sc2ccccc21)N1C(=O)/C(=C\c2cccc(Br)c2)SC1c1cccc(Br)c1	agar		inhibition	H37Rv			50 µg/mL	79%

The last 9 rows once more:

smiles,read by,cells,measure,strain,setting,mutations,dose,value
NNC(=O)c1ccncc1,resazurin,,MIC,M-4,,MDR,,>2 µg/mL
COc1ccc(-c2noc(C3=CC4(CCN(CC5CCCO5)CC4)c4ccccc43)n2)cn1,resazurin,,MIC,H37Rv,,,,0.4 µM
CCN1C(=O)S/C(=C/c2ccc(Cl)c(Cl)c2)C1=O,BACTEC,,MIC bound,H37Rv,,,,>12.5 µg/mL
CN[C@@H]1[C@H](O[C@H]2[C@H](O[C@H]3[C@H](O)[C@@H](O)[C@H](N=C(N)N)[C@@H](O)[C@@H]3N=C(N)N)O[C@@H](C)[C@]2(O)C=O)O[C@@H](CO)[C@H](O)[C@H]1O,resazurin,,MIC,M21,,MDR,,>8 µg/mL
CC(=O)Nc1ccc(OCC(=O)NN2C(=O)C(C)SC2/C=C/c2ccccc2)cc1,,,EC50,H37Rv,,,,>12.5 µg/mL
O=Nc1c(-c2ccccc2)[nH]oc1=O,resazurin,,inhibition,H37Rv,,,6.25 µg/mL,99%
Cc1ccc(-n2c(=S)oc3ccc(F)cc3c2=S)cc1,,,MIC,My 331/88,14 d,,,1 µM
CC1(C)OC(CO)C2OC(C)(C)OC(CO)C2O1,BACTEC,,inhibition,H37Rv,,,12.5 µg/mL,-22%
O=C(NCCCN1c2ccccc2Sc2ccccc21)N1C(=O)/C(=C\c2cccc(Br)c2)SC1c1cccc(Br)c1,agar,,inhibition,H37Rv,,,50 µg/mL,79%

Conditions beyond the fields shown may differ between rows. a–b is a range or a potency band. Blank or dashed fields: not listed here. MIC bound comes from a single tested concentration. Percent inhibition refers to the dose given; in toxicity tests it is the harm to the cells. ECn: concentration that inhibits the pathogen or its effect by n%.